A mixed list of measured activities; the numbers were collected in NIAID ChemDB.

Shared fields: tests on isolated targets; agent: HIV-1; protein: Reverse transcriptase

ICn: concentration for n% inhibition. Lines come from different laboratories, so protocols vary. Inhibition is in % at the dose shown (toxicity tests: loss of growth or viability). An empty or dashed field is not shown. Fold resistance: result on the changed form divided by that on wild type.

smiles,tested at,mutations,strain,read-out,read by,result
O=C(O)Cn1cnc2c(=O)[nH]c(NC(=O)OCc3ccccc3)nc21,,Y188L,NNRTI-resistant,Ki,nucleotide incorporation / radiometric,25.7 µM
O=c1c2cccn2c2ccccc2n1CCNC(=S)Nc1ccc(Cl)cn1,,RT-Y188L,,Ki,nucleotide incorporation,>5 µM
Nc1ccn([C@H]2CC[C@@H](COP(=O)(O)OP(=O)(O)OP(=O)(O)O)O2)c(=O)n1,,RT-Y181I,,Ki,RT activity,0.4 µM
Nc1ccn([C@@H]2CS[C@H](COP(=O)(O)OP(=O)(O)OP(=O)(O)O)O2)c(=O)n1,,RT-A62V V75I F77L F116Y Q151M,,Ki,nucleotide incorporation / radiometric,2.4 µM
Cc1cn([C@H]2C=C[C@@H](COP(=O)(O)OP(=O)(O)OP(=O)(O)O)O2)c(=O)[nH]c1=O,,RT-Q161L,,Ki,,0.046 µM
CC(C)(C)OC(=O)Cn1cnc2c(Oc3ccccc3[N+](=O)[O-])nc(NC(=O)OCc3ccccc3)nc21,,Y188L,NNRTI-resistant,Ki,nucleotide incorporation / radiometric,211 µM
CCN1c2ncccc2C=Cc2cccnc21,1 µM,RT-Y181C,,inhibition,nucleotide incorporation,41%
Nc1nc(=O)n([C@@H]2CC[C@H](COP(=O)(O)OP(=O)(O)OP(=O)(O)O)O2)cc1F,,RT-A62V V75I F77L F116Y Q151M,,Ki,nucleotide incorporation / radiometric,4.6 µM
COc1ccc2c(c1)N(C(=O)OC(C)C)[C@@H](CSC)C(=S)N2,,RT-G190A,,IC50,scintillation proximity / radiometric,0.71 µM
Nc1ncnc2c1ncn2CCOCP(=O)(O)OP(=O)(O)OP(=O)(O)O,,RT-A62V V75I F77L F116Y Q151M,,Ki,nucleotide incorporation / radiometric,0.5 µM
O=c1c2cccn2c2cccc(F)c2n1CCNC(=S)Nc1ccc(Br)cn1,,RT-L100I,,fold resistance,nucleotide incorporation,18.9
c1ccc(C2SCc3nc4ccccc4n32)cc1,,RT-Y181I,,fold resistance,,>2
Cc1cc(S(N)(=O)=O)ccc1NC(=O)COc1ccc(Cl)cc1C(=O)c1cc(Cl)cc(C#N)c1,,RT-V106I,,IC50,fluorescence,0.0027 µM
O=c1c2cccn2c2ccccc2n1CCNC(=S)Nc1ccc(Br)cn1,,RT-V106A,,Ki,nucleotide incorporation,0.112 µM
Nc1ccn([C@H]2CC[C@@H](COP(=O)(O)OP(=O)(O)OP(=O)(O)O)O2)c(=O)n1,,,,Ki,nucleotide incorporation / radiometric,0.27 µM

The first 2 rows once more:

{"smiles": "O=C(O)Cn1cnc2c(=O)[nH]c(NC(=O)OCc3ccccc3)nc21", "mutations": "Y188L", "strain": "NNRTI-resistant", "read-out": "Ki", "read by": "nucleotide incorporation / radiometric", "result": "25.7 µM"}
{"smiles": "O=c1c2cccn2c2ccccc2n1CCNC(=S)Nc1ccc(Cl)cn1", "mutations": "RT-Y188L", "read-out": "Ki", "read by": "nucleotide incorporation", "result": ">5 µM"}